Tests used:
[1] = Metal corrosion inhibition in brake fluid A, tin-plate; conditions: 100°±2° C., 120±2 hours, blank -0.15
[2] = Metal corrosion inhibition in brake fluid A, steel; conditions: 100°±2° C., 120±2 hours, blank -0.20
[3] = Metal corrosion inhibition in brake fluid A, aluminum; conditions: 100°±2° C., 120±2 hours, blank +0.07
[4] = Metal corrosion inhibition in brake fluid A, cast iron; conditions: 100°±2° C., 120±2 hours, blank -0.14
[5] = Metal corrosion inhibition in brake fluid A, brass; conditions: 100°±2° C., 120±2 hours, blank -0.20
[6] = Metal corrosion inhibition in brake fluid A, copper; conditions: 100°±2° C., 120±2 hours, blank +0.18
[7] = Table 5, carboxylate derivatives […] by weight in brake fluid A
[8] = Table 4, azaalkenelactams […] by weight in brake fluid A

Row | Compound | Weight change, tin-plate [1, 7] [mg/cm^2] | Weight change, steel [2, 7] [mg/cm^2] | Weight change, aluminum [3, 7] | Weight change, cast iron [4, 7] [mg/cm^2] | Weight change, brass [5, 7] | Weight change, copper [6, 7] | Weight change, tin-plate [1, 8] [mg/cm^2] | Weight change, steel [2, 8] [mg/cm^2] | Weight change, aluminum [3, 8] | Weight change, cast iron [4, 8] [mg/cm^2] | Weight change, brass [5, 8] [mg/cm^2] | Weight change, copper [6, 8]
1 | CCCCCCCCCCCCNCCNCCNCCCN1CCC[N+](CC(=O)[O-])=C(C)CC1=O [1-dodecylaminoethylaminoethylaminopropyl-4-methyl-1-aza-5-azoniacyclooct-4-en-2-one-5-acetate] | -0.01 | -0.02 | +0.02 mg/cm^2 | -0.01 | 0 mg/cm^2 | -0.01 mg/cm^2 |  |  |  |  |  | 
2 | CCCCCCCCCc1ccc(OCCOCCN2CCC[N+](CC(=O)[O-])=C(C)CC2=O)cc1 [1-nonylphenylpoly(2 moles)oxyethyleneoxyethyl-4-methyl-1-aza-5-azoniacyclooct-4-en-2-one-5-acetate] | -0.02 | -0.03 | +0.01 mg/cm^2 | -0.02 | -0.01 mg/cm^2 | 0 mg/cm^2 |  |  |  |  |  | 
3 | CCCCCCCCCCCC(=O)OCCN1CC[N+](CC(=O)[O-])=CC(C)C1=O (stereo not drawn) [4-lauroyloxyethyl-6-methyl-1-azonia-4-azacyclohept-7-en-5-one-1-acetate] | -0.03 | -0.03 | +0.02 mg/cm^2 | -0.04 | -0.02 mg/cm^2 | -0.02 mg/cm^2 |  |  |  |  |  | 
4 | CCCCCCCCCc1ccc(OCCOCCN2CCCN=CC(C)(C)C2=O)cc1 [Example 62, 1-nonylphenylpoly(2 moles)oxyethyleneoxyethyl-3,3-dimethyl-6,7,8-trihydro-1,5-diazocin-5-one] |  |  |  |  |  |  | -0.01 | -0.02 | +0.02 mg/cm^2 | -0.02 | -0.02 | +0.02 mg/cm^2
5 | 4-methylbenzylpoly(2 moles)oxypropyleneoxypropyl-6-methyl-2,3,6,7-tetrahydro-1,4-diazocin-5-one [Example 67] |  |  |  |  |  |  | -0.01 | -0.01 | +0.01 mg/cm^2 | -0.02 | -0.02 | +0.02 mg/cm^2
6 | CCCCCCCC/C=C\CCCCCCCC(=O)OCCN1CC[N+](CC(=O)[O-])=C(C)CC1=O [4-oleoyloxyethyl-7-methyl-1-azonia-4-azacyclohept-7-en-5-one-1-acetate] | -0.01 | -0.02 | 0 mg/cm^2 | 0 | -0.01 mg/cm^2 | +0.02 mg/cm^2 |  |  |  |  |  | 
7 | CCCCCCCCCCCCCCC(O)CNCCN1CC[N+](CC(=O)[O-])=CCCC1=O (stereo not drawn) [4-(2-hydroxyhexadecyl)aminoethyl-4-aza-1-azoniacyclooct-8-en-5-one-1-acetate] | -0.02 | -0.02 | +0.02 mg/cm^2 | -0.02 | -0.02 mg/cm^2 | -0.02 mg/cm^2 |  |  |  |  |  | 
8 | CCCCCCCCCCCCC(O)CNCCN1CC[N+](CC(=O)[O-])=C(C)CC1=O (stereo not drawn) [4-(2-hydroxytetradecyl)aminoethyl-7-methyl-1-azonia-4-azacyclohept-7-en-5-one-1-acetate] | -0.02 | -0.03 | +0.01 mg/cm^2 | -0.01 | 0 mg/cm^2 | -0.01 mg/cm^2 |  |  |  |  |  | 
9 | CCCCCC[C@@H](O)C/C=C\CCCCCCCC(=O)NCCN1CCN=CC(C)(C)C1=O [Example 64, 4-ricinolamidoethyl-6,6-dimethyl-3-hydro-2H-1,4-diazepin-5-one] |  |  |  |  |  |  | -0.01 | -0.01 | +0.02 mg/cm^2 | -0.02 | -0.02 | +0.02 mg/cm^2
10 | CC1=[N+](CC(=O)[O-])CCN(CC(C)OCC(C)OCC(C)OCc2ccc(C)cc2)C(=O)C1 (stereo not drawn) [4-methylbenzylpoly(2 moles)oxypropyleneoxypropyl-7-methyl-1-azonia-4-azacyclohept-7-en-5-one-1-acetate] | -0.01 | -0.03 | +0.02 mg/cm^2 | -0.01 | -0.01 mg/cm^2 | 0 mg/cm^2 |  |  |  |  |  | 
11 | CCCCCCCCCCCCCCNCCN1CC[N+](CC(=O)[O-])=CC(C)C1=O (stereo not drawn) [4-tetradecylaminoethyl-6-methyl-1-azonia-4-azacyclohept-7-en-5-one-1-acetate] | -0.02 | -0.01 | +0.02 mg/cm^2 | 0 | -0.02 mg/cm^2 | -0.01 mg/cm^2 |  |  |  |  |  | 
12 | CCCCCCCCCCCCCCCCCCCCCC(=O)OCCCN1CCCN=CC(C)C1=O (stereo not drawn) [Example 51, 1-behenoyloxypropyl-3-methyl-3,6,7,8-tetrahydro-1,5-diazocin-2-one] |  |  |  |  |  |  | -0.02 | -0.02 | 0 mg/cm^2 | -0.01 | -0.03 | +0.02 mg/cm^2
13 | CCCCCCCCCCCCCCCCCCCCCCNCCN1CC[N+](CC(=O)[O-])=C(C)CC1=O [4-docosylaminoethyl-7-methyl-1-azonia-4-azacyclohept-7-en-5-one-1-acetate] | -0.03 | -0.02 | +0.02 mg/cm^2 | 0 | -0.01 mg/cm^2 | 0 mg/cm^2 |  |  |  |  |  | 
14 | CCCCCCCCCCCCCCNCCN1CCN=CCC(C)C1=O (stereo not drawn) [Example 65, 4-tetradecylaminoethyl-6-methyl-2,3,6,7-tetrahydro-1,4-diazocin-5-one] |  |  |  |  |  |  | 0 | -0.01 | 0 mg/cm^2 | -0.01 | -0.01 | -0.01 mg/cm^2
15 | CCCCCCCCCCCCCCC(O)CNCCN1CC[N+](CC(=O)[O-])=C(C)CC1=O (stereo not drawn) [4-(2-hydroxyhexadecyl)aminoethyl-7-methyl-1-azonia-4-azacyclohept-7-en-5-one-1-acetate] | -0.01 | -0.02 | 0 mg/cm^2 | -0.02 | +0.01 mg/cm^2 | -0.01 mg/cm^2 |  |  |  |  |  | 
16 | CCCCCCCCCCCCCCCCCCCCCCNCCN1CCN=C(C)CC1=O [Example 22, 4-docosylaminoethyl-7-methyl-3,6-dihydro-2H-1,4-diazepin-5-one] |  |  |  |  |  |  | 0 | 0 | +0.01 mg/cm^2 | -0.03 | -0.01 | +0.01 mg/cm^2
